In patent publication US9988424 (DUKE UNIVERSITY, dated 2018):

What was measured:
J08 A.92RW020V1V2 = J08 A.92RW020V1V2 (HIV-1); test: SPR, mAb captured on anti-Fc
J08 B.HXB2/BALV1V2 = biological target: T1, J08 B.HXB2/BALV1V2 (HIV-1); test: SPR, mAb captured on anti-Fc
T1 construct: also called J08 B.HXB/BAL V1V2
T1 chain: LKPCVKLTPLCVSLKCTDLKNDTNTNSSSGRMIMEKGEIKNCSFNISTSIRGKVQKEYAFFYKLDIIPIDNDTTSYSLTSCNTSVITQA

B.63521_V1V2 Tags = biological target: T2, B.63521_V1V2 Tags; test: ELISA, OD405 at 10 ug/ml mAb
T2 Env construct: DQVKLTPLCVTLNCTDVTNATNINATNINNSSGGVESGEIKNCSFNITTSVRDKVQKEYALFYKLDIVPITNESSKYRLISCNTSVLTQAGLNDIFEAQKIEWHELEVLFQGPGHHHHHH

SIV CPZ US-1 gp140CF = biological target: T3, SIV CPZ US-1 gp140CF (SIVcpz); test: ELISA OD405nm, bar chart, antibody concentration not given
T3 construct: also called US-1 SIVCPZ gp140CF
T3 chain: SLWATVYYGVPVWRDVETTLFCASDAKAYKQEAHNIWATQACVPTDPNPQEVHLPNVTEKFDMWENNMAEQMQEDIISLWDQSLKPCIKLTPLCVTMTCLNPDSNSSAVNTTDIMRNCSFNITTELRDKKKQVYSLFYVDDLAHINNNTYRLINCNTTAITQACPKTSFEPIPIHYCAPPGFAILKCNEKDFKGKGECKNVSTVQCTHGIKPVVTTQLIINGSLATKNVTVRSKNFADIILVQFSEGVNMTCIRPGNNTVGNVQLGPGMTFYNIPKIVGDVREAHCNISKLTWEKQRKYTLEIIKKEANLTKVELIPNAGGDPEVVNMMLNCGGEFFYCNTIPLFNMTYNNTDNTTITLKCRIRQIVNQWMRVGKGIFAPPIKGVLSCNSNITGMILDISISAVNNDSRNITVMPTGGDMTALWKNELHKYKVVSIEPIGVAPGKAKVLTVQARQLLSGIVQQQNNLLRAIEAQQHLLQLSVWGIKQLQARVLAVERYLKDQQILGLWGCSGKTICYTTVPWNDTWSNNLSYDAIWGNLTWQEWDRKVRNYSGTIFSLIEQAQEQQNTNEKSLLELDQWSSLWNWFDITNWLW

Env of SHIV SF162P3 = Env of SHIV SF162P3 (SHIV); test: cell-based or functional assay
Env of SHIV-BaL = Env of SHIV-BaL (SHIV); test: cell-based or functional assay
B.con gp140CF = biological target: T4, B.con gp140CF; test: ELISA, OD405
T4 construct: also called B.con.env03 gp140CF

G.con gp140CF = biological target: T5, G.con gp140CF; test: ELISA, OD405
T5 construct: also called G.con.env03 gp140CF
T5 chain: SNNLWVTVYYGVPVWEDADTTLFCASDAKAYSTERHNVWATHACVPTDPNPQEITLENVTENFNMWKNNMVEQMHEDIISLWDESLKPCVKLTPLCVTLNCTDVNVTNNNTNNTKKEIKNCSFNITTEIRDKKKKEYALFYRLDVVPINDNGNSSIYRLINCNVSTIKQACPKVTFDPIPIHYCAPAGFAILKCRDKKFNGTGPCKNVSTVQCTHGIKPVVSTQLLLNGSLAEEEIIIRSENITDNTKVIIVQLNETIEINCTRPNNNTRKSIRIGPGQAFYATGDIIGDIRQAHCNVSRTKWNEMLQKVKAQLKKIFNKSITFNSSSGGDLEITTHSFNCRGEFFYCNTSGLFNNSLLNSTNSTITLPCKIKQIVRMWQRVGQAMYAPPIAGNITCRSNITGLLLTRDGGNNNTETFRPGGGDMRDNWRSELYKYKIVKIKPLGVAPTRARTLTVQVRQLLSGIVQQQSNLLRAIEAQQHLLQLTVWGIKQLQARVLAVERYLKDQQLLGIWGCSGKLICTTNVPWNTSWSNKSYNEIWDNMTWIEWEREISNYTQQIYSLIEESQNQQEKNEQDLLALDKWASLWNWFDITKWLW

B.HXB/BAL gp140CFI = biological target: T6, B.HXB/BAL gp140CFI (HIV-1, UniProt P04578 33-680); test: ELISA, OD405
T6 construct: also called B.HxB/Ba gp140 CFI

B. 681-7 gp140C = biological target: T7, B. 681-7 gp140C; test: ELISA, OD405
T7 chain: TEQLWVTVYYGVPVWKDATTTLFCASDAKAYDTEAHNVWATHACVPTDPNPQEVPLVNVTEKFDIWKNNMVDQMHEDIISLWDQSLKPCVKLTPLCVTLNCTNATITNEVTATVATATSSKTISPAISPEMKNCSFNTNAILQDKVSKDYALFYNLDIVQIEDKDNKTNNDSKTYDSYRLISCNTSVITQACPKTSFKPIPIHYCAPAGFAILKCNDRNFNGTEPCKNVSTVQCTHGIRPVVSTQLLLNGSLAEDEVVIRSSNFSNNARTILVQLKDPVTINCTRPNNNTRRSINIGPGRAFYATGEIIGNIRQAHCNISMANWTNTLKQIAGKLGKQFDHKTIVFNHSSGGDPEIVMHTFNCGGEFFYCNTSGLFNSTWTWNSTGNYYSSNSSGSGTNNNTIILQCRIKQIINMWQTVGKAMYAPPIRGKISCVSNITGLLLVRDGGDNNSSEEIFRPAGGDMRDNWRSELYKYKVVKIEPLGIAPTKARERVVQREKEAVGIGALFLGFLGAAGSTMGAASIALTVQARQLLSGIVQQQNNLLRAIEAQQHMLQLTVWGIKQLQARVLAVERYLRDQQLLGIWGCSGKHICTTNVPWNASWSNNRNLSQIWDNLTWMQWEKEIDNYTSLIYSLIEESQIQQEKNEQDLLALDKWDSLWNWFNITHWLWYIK

B1: CH58 (antibody, V domains shown)
VH: EVQLVQSGAEVKKPGESLKISCKGSGYRFTSYWIVWVRQMPGKGLEWMGIIYPGDFDTKYSPSFQGQVTISADKSISTAYLQWSSLKASDTAMYYCARLGGRYYHDSSGYYYLDYWGQGTLVTVSS
VL: NFMLTQPHSVSESPGKTVTISCTRSSGSVASDYVQWYQQRPGSAPTTVVYEDNQRPSGVPDRFSGSIDSSSNSASLTISGLKTEDEADYYCQSYDNSSWVFGGGTKLTVL
J08 A.92RW020V1V2
  Kd: 117 nM
J08 B.HXB2/BALV1V2
  Kd: 323 nM
B.63521_V1V2 Tags
  binding result: binds
SIV CPZ US-1 gp140CF
  binding result: no binding (tested: not given)
Env of SHIV SF162P3
  EC50, neutralization of SHIV SF162P3: > 50 µg/mL
Env of SHIV-BaL
  EC50, neutralization of SHIV-BaL: > 50 µg/mL
B.con gp140CF
  binding result: no binding (tested: 10 ug/ml)
G.con gp140CF
  binding result: no binding (tested: 10 ug/ml)
B.HXB/BAL gp140CFI
  binding result: no binding (tested: 10 ug/ml)
B. 681-7 gp140C
  binding result: no binding (tested: 10 ug/ml)
